Anti-infective test results gathered from many reports (values: NIAID ChemDB through PubChem).

All rows: growth or infection tests; organism: HIV-1

An empty or dashed field is not shown. Conditions beyond the fields shown may differ between rows. ECn: concentration that inhibits the pathogen or its effect by n%.

{"smiles": "Cc1ccc(-c2cc(-c3ccccc3)n(-c3ccc(C)c(C)c3)n2)c(=O)[nH]1", "read-out": "EC50", "cell line": "TZM-bl", "read by": "luminescence", "strain or isolate": "UG070", "value": "464 µM"}
{"smiles": "[2H]C(NC(=O)c1ccc(Cl)cc1)C(=O)NC[C@H](O)[C@@]12CC[C@]3(C)[C@H](CC[C@@H]4[C@@]5(C)CC[C@H](OC(=O)[C@H]6C[C@@H](C(=O)O)C6(C)C)C(C)(C)[C@@H]5CC[C@]43C)C1=C(C(C)C)C(=O)C2", "read-out": "EC50", "cell line": "MT-2", "read by": "p24 / ELISA", "strain or isolate": "92HT599", "value": "<1 µM"}
{"smiles": "NC(=O)OCc1ncc(Sc2cc(Cl)cc(Cl)c2)n1Cc1ccncc1", "read-out": "EC50", "cell line": "MT-4", "read by": "syncytia", "strain or isolate": "IIIB", "value": ">0.0014 µg/mL"}
{"smiles": "O=C(O)C(=O)/C=C(\\O)c1cc(Cc2cccc(Cl)c2F)cn(Cc2cccc(Cl)c2F)c1=O", "read-out": "EC50", "cell line": "MAGI", "value": "2.4 µM"}
{"smiles": "CC(C)C1=C2[C@H]3CC[C@@H]4[C@@]5(C)CC[C@H](OC(=O)[C@H]6C[C@@H](C(=O)O)C6(C)C)C(C)(C)[C@@H]5CC[C@@]4(C)[C@]3(C)CC[C@@]2([C@@H](O)CNCc2nc3ccccc3[nH]2)CC1=O", "read-out": "EC50", "cell line": "MT-2", "read by": "p24 / ELISA", "strain or isolate": "92HT599", "value": "<1 µM"}
{"smiles": "Cc1ccc(-c2cc(-c3ccccc3)n(-c3ccc(C(C)C)cc3)n2)c(=O)[nH]1", "read-out": "EC50", "cell line": "TZM-bl", "read by": "luminescence", "strain or isolate": "VB59", "value": "15.34 µM"}
{"smiles": "CCc1nc([N+](=O)[O-])c(N2CCN(C(=O)OCn3c4ccccc4c4ccccc43)CC2)n1Cc1ccccc1", "read-out": "EC50", "cell line": "MT-4", "read by": "syncytia", "strain or isolate": "IIIB", "value": ">11.3 µg/mL"}
{"smiles": "O=C(O)C(=O)/C=C(\\O)c1cc(Cc2ccccc2)cn(Cc2ccc(F)c(Cl)c2F)c1=O", "read-out": "EC50", "cell line": "MAGI", "value": "0.6 µM"}
{"smiles": "CCc1nc([N+](=O)[O-])c(N2CCN(C(=O)c3ccc([N+](=O)[O-])cc3)CC2)n1Cc1ccccc1", "read-out": "EC50", "cell line": "MT-4", "read by": "syncytia", "strain or isolate": "IIIB", "value": ">84.7 µg/mL"}
{"smiles": "CCOC(=O)c1c(C)n([C@H]2C[C@@H]2c2ccccc2)c2ccc(OC(C)=O)c(O)c12", "read-out": "EC50", "cell line": "MT-4", "read by": "MTT", "strain or isolate": "NL4-3", "value": "6.37 µM"}
{"smiles": "CC(C)NC(=O)c1[nH]c(=O)c(O)c2c1CCN(Cc1ccc(F)cc1)C2=O", "read-out": "EC95", "cell line": "MT-4", "read by": "p24", "value": "≤10 µM"}
{"smiles": "Cc1ccc(-n2nc(-c3ccc(C)[nH]c3=O)cc2-c2ccccc2)cc1", "read-out": "EC50", "cell line": "TZM-bl", "read by": "luminescence", "strain or isolate": "VB59", "value": ">147 µM"}
{"smiles": "CC(C)C1=C2[C@H]3CC[C@@H]4[C@@]5(C)CC[C@H](OC(=O)[C@H]6C[C@@H](C(=O)O)C6(C)C)C(C)(C)[C@@H]5CC[C@@]4(C)[C@]3(C)CC[C@@]2(CCNCC(C)(C)NC(=O)c2ccc(N3CCCCC3)cc2)CC1=O", "read-out": "EC50", "cell line": "MT-2", "read by": "p24 / ELISA", "strain or isolate": "92HT599", "value": "<1 µM"}
{"smiles": "CN(C)C(=O)c1[nH]c(=O)c(O)c2c1CCN(Cc1ccc(F)cc1)C2=O", "read-out": "EC95", "cell line": "MT-4", "read by": "p24", "value": "≤10 µM"}
{"smiles": "COc1cccc(-n2nc(-c3ccc(C)[nH]c3=O)cc2-c2ccccc2)c1", "read-out": "EC50", "cell line": "TZM-bl", "read by": "luminescence", "strain or isolate": "VB59", "value": ">280 µM"}
{"smiles": "CC(C)C1=C2[C@H]3CC[C@@H]4[C@@]5(C)CC[C@H](OC(=O)[C@H]6C[C@@H](C(=O)O)C6(C)C)C(C)(C)[C@@H]5CC[C@@]4(C)[C@]3(C)CC[C@@]2([C@@H](O)CNCC2CC2)CC1=O", "read-out": "EC50", "cell line": "MT-2", "read by": "p24 / ELISA", "strain or isolate": "92HT599", "value": "<1 µM"}
{"smiles": "O=C(O)C(=O)/C=C(\\O)c1cc(Cc2cccc(Cl)c2)cn(Cc2ccccc2F)c1=O", "read-out": "EC50", "cell line": "MAGI", "value": "1.9 µM"}
{"smiles": "Cc1ccc(-c2cc(-c3ccccc3)n(-c3cccc(C(F)(F)F)c3)n2)c(=O)[nH]1", "read-out": "EC50", "cell line": "TZM-bl", "read by": "luminescence", "strain or isolate": "UG070", "value": "190 µM"}
{"smiles": "CCOC(=O)c1c(CSc2ccccc2)n(C)c2cc(Br)c(O)c(CN(C)C)c12", "read-out": "EC50", "cell line": "MT-4", "read by": "MTT", "strain or isolate": "NL4-3", "value": "20.32 µM"}
{"smiles": "CC(C)Cn1c(C(=O)N(C)C)c2c(c(O)c1=O)C(=O)N(Cc1ccc(F)c(Cl)c1)CC2", "read-out": "EC95", "cell line": "MT-4", "read by": "p24", "value": "≤10 µM"}
{"smiles": "Cc1ccc(-c2nc3ccc(C(=O)NCC[C@@]45CC[C@]6(C)[C@H](CC[C@@H]7[C@@]8(C)CC[C@H](OC(=O)[C@H]9C[C@@H](C(=O)O)C9(C)C)C(C)(C)[C@@H]8CC[C@]76C)C4=C(C(C)C)C(=O)C5)cc3[nH]2)cn1", "read-out": "EC50", "cell line": "MT-2", "read by": "p24 / ELISA", "strain or isolate": "92HT599", "value": "<1 µM"}
{"smiles": "O=C(O)C(=O)/C=C(\\O)c1cc(Cc2cccc(Cl)c2)cn(Cc2ccc(Cl)cc2)c1=O", "read-out": "EC50", "cell line": "MAGI", "value": "2.5 µM"}
{"smiles": "CCN(CC)C(=O)c1c2c(c(O)c(=O)n1C)C(=O)N(Cc1ccc(F)c(Cl)c1)CC2", "read-out": "EC50", "cell line": "MT-4", "read by": "p24", "value": "<10 µM"}
{"smiles": "CC(C)C1=C2[C@H]3CC[C@@H]4[C@@]5(C)CC[C@H](OC(=O)[C@H]6C[C@@H](C(=O)O)C6(C)C)C(C)(C)[C@@H]5CC[C@@]4(C)[C@]3(C)CC[C@@]2(CCNC(=O)c2ccc3nc[nH]c3c2)CC1=O", "read-out": "EC50", "cell line": "MT-2", "read by": "p24 / ELISA", "strain or isolate": "92HT599", "value": "<1 µM"}
{"smiles": "CNC(=O)c1[nH]c(=O)c(O)c2c1CCN(Cc1ccc(F)cc1)C2=O", "read-out": "EC50", "cell line": "MT-4", "read by": "p24", "value": "<10 µM"}
{"smiles": "CCc1nc([N+](=O)[O-])c(N2CCN(C(=O)CCc3c[nH]c4ccccc34)CC2)n1Cc1ccccc1", "read-out": "EC50", "cell line": "MT-4", "read by": "syncytia", "strain or isolate": "IIIB", "value": ">15.2 µg/mL"}
{"smiles": "CCN(CC)C(=O)c1[nH]c(=O)c(O)c2c1CCN(Cc1ccc(F)cc1)C2=O", "read-out": "EC95", "cell line": "MT-4", "read by": "p24", "value": "≤10 µM"}
{"smiles": "C[C@@H]1CCO[C@H]2Cn3cc(C(=O)NCc4ccc(F)cc4F)c(=O)c(O)c3C(=O)N12", "read-out": "EC50", "cell line": "CBMC", "mutations": "N155H", "read by": "RT activity", "strain or isolate": "NL4-3", "value": "0.0016 µM"}
{"smiles": "O=C(O)C(=O)/C=C(\\O)c1cc(Cc2ccc(F)cc2)cn(Cc2c(F)cccc2F)c1=O", "read-out": "EC50", "cell line": "MAGI", "value": "1.4 µM"}

The first 4 rows once more:

smiles,read-out,cell line,mutations,read by,strain or isolate,value
Cc1ccc(-c2cc(-c3ccccc3)n(-c3ccc(C)c(C)c3)n2)c(=O)[nH]1,EC50,TZM-bl,,luminescence,UG070,464 µM
[2H]C(NC(=O)c1ccc(Cl)cc1)C(=O)NC[C@H](O)[C@@]12CC[C@]3(C)[C@H](CC[C@@H]4[C@@]5(C)CC[C@H](OC(=O)[C@H]6C[C@@H](C(=O)O)C6(C)C)C(C)(C)[C@@H]5CC[C@]43C)C1=C(C(C)C)C(=O)C2,EC50,MT-2,,p24 / ELISA,92HT599,<1 µM
NC(=O)OCc1ncc(Sc2cc(Cl)cc(Cl)c2)n1Cc1ccncc1,EC50,MT-4,,syncytia,IIIB,>0.0014 µg/mL
O=C(O)C(=O)/C=C(\O)c1cc(Cc2cccc(Cl)c2F)cn(Cc2cccc(Cl)c2F)c1=O,EC50,MAGI,,,,2.4 µM